Values quoted from earlier work in patent US8114583B2, “Switch-region: target and method for inhibition of bacterial RNA polymerase” (priority 2005, dated 2012).

Legend:
Staphylococcus aureus = details: cited from earlier work
[1] = tested on: Acinetobacter calcoaceticus; details: cited from earlier work

CCC/C(C)=C/C=C(\C)C(=O)c1c(O)cc([C@H](C)CC/C=C/NC(=O)OC)oc1=O [Myx, myxopyronin]
MIC (Staphylococcus aureus): ≤ 1 μg/ml and ≤ 10 μg/ml | MIC [1]: ≤ 1 μg/ml and ≤ 10 μg/ml

A number of entries come with more than one value. They are shown here; other results are not. There may be further records. The records of an entry differ, and nothing given here explains why; dose, time, organism, isomer or construct need not be as stated for each record.
